For at least one entry, the source does not settle the construct or the ends of the probe.
Assays:
[1] = target: T1, ArgR-His6 (Vibrio fluvialis 85003) (UniProt A0AAX2LJS0); assay: DNase I footprinting; conditions: 5.40 uM ArgR, footprinting: 5.40 uM ArgR-His6, 40 uL, 37 C 0.5 h, recombinant protein, residues 1-161, probe letters rebuilt from the primers and the genome
T1 sequence: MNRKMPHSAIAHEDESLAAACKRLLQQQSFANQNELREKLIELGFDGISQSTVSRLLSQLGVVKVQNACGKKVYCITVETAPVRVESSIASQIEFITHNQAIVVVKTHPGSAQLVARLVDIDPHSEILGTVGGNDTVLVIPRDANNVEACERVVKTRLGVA

[2] = target: T1, ArgR-His6 (Vibrio fluvialis 85003); assay: EMSA; conditions: EMSA: 20 mM Tris/HCl pH 7.6, 50 mM KCl, 1 mM EDTA, 5% glycerol, 200 ng BSA, 500 ng dI-dC, 15 ng probe, 30 C 20 min, recombinant protein, residues 1-161, label: biotin, probe letters rebuilt from the primers and the genome

Question: Does “CATCGGTTTGAGTTTGTCTCAGATCAATATTTTGGCCGATATTTTTGTTACATCGGACGTTTTTATTCGCCCTAAAGTCACTATCTACCCTTTAGAAATGCATACTTCAGTGCTATTGAGTGAATAATAAGGAAAATGAATTTGCATAAACTTCCTCAACTATCAATTCATCCTCCTAATTTCATGAATATTCTTTATTTATCCCGATTAAACTTCCATAAAATCCGCACAACCACCCAACAAGATAATCTTCTATCAGATGAATAAACATTGTTAAAAAACACTAGATTTCATGCTTTTTTAATAAAAATCGAACTGTGATCGCTCTCTAAGAAAGACCTCTCTGACGGGGTAATATGAATATCAGAACG (double strand) [arcACB footprinting probe]” bind ([1]; sites 1, 2 and 4 protected, site 3 not detected, label: FAM)?
Answer: binds

Question: Does “GCCACTGAAATAGCAATTGAATAAAATTCCCTATTTTTTATTCACCCGGAGAAAAGTCACGAGCAACCGTGCACAAGGGGAATATTTAAAGAATAGAATTTCATTATTTATAGCCAATTACCCCGCTTTATTTTTCTGGTTATTTCCGGCCAATTTATTACCCCAATATTTTGTGAACCACCGCTAAGATAATCCGCCGCAGGCTCTTTAGAATTTCTTTAACGATGAAGTGAAATTCACTTTATCACCATGAATAACAATAAAAGTTTTCACCATATTTATTACAAGTCCTAAGCTTTATTCCACGAAATACGTTGCCATATTGAATAGTATTGCAATAAACGTTTTCTAAATGAGTGAATTGAGGTGTGGG (double strand) [arcD1 probe]” bind ([2]; four shifted bands)?
Answer: binds

Question: Does “CTTCCATAAAATCCGCACAACCACCCAACAAGATAATCTTCTATCAGATGAATAAACATTGTTAAAAAACACTAGATTTCATGCTTTTTTAATAAAAATCGAACTGTGATCGCTCT (double strand) [arcACB2 probe]” bind ([2]; two shifted bands)?
Answer: binds

Question: Does “GCATACTTCAGTGCTATTGAGTGAATAATAAGGAAAATGAATTTGCATAAACTTCCTCAACTATCAATTCATCCTCCTAATTTCATGAATATTCTTTATTTATCCCGATTAAACTTCCATAAAATCCGCACAACCACCCAACAAGATAATCTTCTATCAGATGAATAAACATTGTTAAAAAACACTAGATTTCATGCTTTTTTAATAAAAATCGAACTGTGATCGCTCT (double strand) [arcACB1 probe]” bind ([2]; four shifted bands)?
Answer: binds

Question: Does “TCAGAGCGGAAACAGAGAAGATATGTTTGCATCATCAGACCCACACCTCAATTCACTCATTTAGAAAACGTTTATTGCAATACTATTCAATATGGCAACGTATTTCGTGGAATAAAGCTTAGGACTTGTAATAAATATGGTGAAAACTTTTATTGTTATTCATGGTGATAAAGTGAATTTCACTTCATCGTTAAAGAAATTCTAAAGAGCCTGCGGCGGATTATCTTAGCGGTGGTTCACAAAATATTGGGGTAATAAATTGGCCGGAAATAACCAGAAAAATAAAGCGGGGTAATTGGCTATAAATAATGAAATTCTATTCTTTAAATATTCCCCTTGTGCACGGTTGCTCGTGACTTTTCTCCGGGTGAATAAAAAATAGGGAATTTTATTCAATTGCTATTTCAGTGGCAGGAAAATAACTTTCGAACCAATGCTTGATTTAAATCAAGTCACTGTATCGGACAC (double strand) [arcD footprinting probe]” bind ([1]; site 1 protected, sites 2 and 3 not protected, label: …)?
Answer: binds

— paper PMC11172107
